Experimental data reported in patent US20100324034A1 (priority 2007, published 2010).

System: resting CD4+ T cells spinoculated with VSVG-pseudotyped R8Δenv/K103N HIV
Assay type: cell-based, human

N-Hydroxy-N′-phenyl octanediamide [SAHA]
induction of HIV expression, percentage of cells induced, compared with TSA, apicidin and VPA: most effective inducer of HIV expression
